{"source": "paper PMC10491346", "about": "“Enzyme Mechanistic Studies of NMA1982, a Protein Tyrosine Phosphatase and Potential Virulence Factor in Neisseria meningitidis” (Research Square, 2023)", "data": [{"tested_on": "Cc1cc(=O)oc2c(F)c(OP(=O)(O)O)c(F)cc12", "test": "purified protein", "settings": "50 mM Bis-Tris pH 6.0, 1.7 mM DTT, 0.005% Tween-20, room temperature", "units": {"Km": "µM", "kcat": "s⁻¹", "kcat/Km": "M⁻¹ s⁻¹"}, "values": [{"substance": "NMA1982 (Neisseria meningitidis FAM18; D84A)", "Km": 40, "kcat": "2.7e-05", "kcat/Km": 0.69}, {"substance": "NMA1982 (Neisseria meningitidis FAM18; D84A/R149A)", "Km": 33, "kcat": 0.00011, "kcat/Km": 3.28}, {"substance": "NMA1982 (Neisseria meningitidis FAM18; R149A)", "Km": 28, "kcat": 0.00026, "kcat/Km": 9.28}]}]}
